Anti-infective test results gathered from many reports (values: NIAID ChemDB through PubChem).

All rows: tests in culture; agent: Herpes simplex virus 1

ECn is the concentration giving n% inhibition of infection, replication or growth. Blank or dashed fields: not listed here. Rows are shuffled and stem from different studies.

structure | method | endpoint | strain or isolate | cell line | result
Cc1c(N)nc([C@H](CC(N)=O)NC[C@H](N)C(N)=O)nc1C(=O)N[C@H](C(=O)N[C@H](C)[C@@H](O)[C@H](C)C(=O)N[C@H](C(=O)NCCc1nc(-c2nc(C(=O)NCCC[S+](C)C)cs2)cs1)[C@@H](C)O)C(O[C@@H]1O[C@@H](CO)[C@@H](O)[C@H](O)[C@@H]1O[C@H]1O[C@H](CO)[C@@H](O)[C@H](OC(N)=O)[C@@H]1O)c1cnc[nH]1 | cytopathic effect | EC50 | KOS | HeLa | >200 µg/mL
Nc1ncnc2c1ncn2C[C@@H](CO)OCP(=O)(O)O | cytopathic effect | EC50 | KOS HPMPA-resistant | HEL | 1.8 µg/mL
O=c1[nH]c(=O)n([C@H]2C[C@H](O)[C@@H](CO)O2)cc1I | cytopathic effect | EC50 | TK- | VERO | >8.4 µM
Nc1nc(N)c2ncn(CCOCP(=O)(O)O)c2n1 | cytopathic effect | EC50 | KOS PFA-resistant | HEL | 27.6 µg/mL
C[C@]12C[C@H](O)[C@H]3[C@@H](CCC4=CC(=O)CC[C@@]43C)[C@@H]1CC[C@@H]2C(=O)CO | cytopathic effect | EC50 | KOS | HeLa | >10 µg/mL
Cc1cn([C@@H]2O[C@H](CO)[C@@H](O)[C@@H]2O)c(=O)[nH]c1=O | cytopathic effect | EC50 | KOS PFA-resistant | HEL | 0.48 µg/mL
CCOC(=O)P(=O)(OCCOCn1cnc2c(=O)[nH]c(N)nc21)OC(C)C | cytopathic effect | EC95 | L2 | VERO | 0.77 µM
COC(=O)CN(CC(=O)OC)P(=O)(OC[C@H]1O[C@@H](n2cc(/C=C/Br)c(=O)[nH]c2=O)C[C@@H]1O)Oc1ccccc1 | - | EC50 | KOS | HEL | >100 µM
C[C@]12CCC(=O)C=C1CC[C@@H]1[C@@H]2C(=O)C[C@@]2(C)[C@H]1CC[C@]2(O)C(=O)CO | cytopathic effect | EC50 | KOS | HeLa | >10 µg/mL
C[C@H](N)C(=O)OCP(=O)(OC[C@H]1O[C@@H](n2cnc3c(N)ccnc32)C[C@@H]1O)Oc1ccccc1 | - | EC50 | KOS | HEL | >100 µM
CO[C@H]1C[C@H](O[C@H]2[C@@H](C)[C@@H](O[C@@H]3O[C@@H](C)C[C@H](N(C)C)[C@H]3O)[C@H](C)C[C@@]3(CO3)C(=O)[C@H](C)[C@H](O)[C@@H](C)[C@H](C)OC(=O)[C@H]2C)O[C@@H](C)[C@@H]1O | cytopathic effect | EC50 | KOS | HeLa | >200 µg/mL
Nc1ncnc2c1ccn2[C@H]1C[C@H](O)[C@@H](CO)O1 | cytopathic effect | EC50 | KOS | PRK | 50 µg/mL
CCOC(=O)CP(=O)(OC)OC[C@H]1O[C@@H](n2cc(I)c(=O)[nH]c2=O)C[C@@H]1O | cytopathic effect | EC50 | TK- | VERO | >57.9 µM
CO[C@H]1[C@@H](O)[C@H](N)[C@@H](O[C@H]2O[C@H](C(C)N)CC[C@H]2N)[C@H](O)[C@@H]1N(C)C(=O)CN | cytopathic effect | EC50 | KOS | HeLa | >200 µg/mL
Nc1ncnc2c1ccn2[C@@H]1O[C@H](CO)[C@H](O)[C@H]1O | cytopathic effect | EC50 | C1 (101) (TK-) | PRK | 0.4 µg/mL
Nc1nc2c(ncn2COCCO)c(=O)[nH]1 | cytopathic effect | EC50 | BRAND | VERO | >0.01 µM
C/C=C/C(=O)OC | cytopathic effect | EC50 | KOS | HeLa | >200 µg/mL
CC(C)(C)C(=O)OCOC(=O)CN(CC(=O)OCOC(=O)C(C)(C)C)P(=O)(OC[C@H]1O[C@@H](n2ccc3c(N)ncnc32)C[C@@H]1O)Oc1ccccc1 | - | EC50 | KOS | HEL | >100 µM
OC[C@H]1O[C@H](OC[C@H]2O[C@H](O[C@]3(CO)O[C@H](CO)[C@@H](O)[C@@H]3O)[C@H](O)[C@@H](O)[C@@H]2O)[C@H](O)[C@@H](O)[C@H]1O | cytopathic effect | EC50 | KOS | HeLa | >200 µg/mL
O=C(O)P(=O)(O)O | cytopathic effect | EC50 | BRAND | VERO | >238 µM
O=C(O)P(=O)(O)O | cytopathic effect | EC50 | KOS | HEL | 29.6 µg/mL
Nc1ccnc2c1ncn2[C@H]1C[C@H](O)[C@@H](COP(=O)(O)COC(=O)[C@@H](N)CC(=O)O)O1 | - | EC50 | KOS | HEL | >100 µM
C[C@H]1[C@H](O)[C@@H](C)/C=C/C=C/C=C/C=C/C=C/C=C/C=C/[C@H](O[C@@H]2O[C@H](C)[C@@H](O)[C@H](N)[C@@H]2O)C[C@@H]2O[C@](O)(C[C@@H](O)C[C@@H](O)CC[C@H](O)[C@@H](O)C[C@@H](O)CC(=O)O[C@H]1C)C[C@H](O)[C@H]2C(=O)O | cytopathic effect | EC50 | KOS | HeLa | >200 µg/mL
NC(=O)c1cn([C@H]2C[C@H](O)[C@@H](CO)O2)c2ncnc(N)c12 | cytopathic effect | EC50 | KOS | PRK | 2 µg/mL
O=C(O)CP(=O)(O)O | cytopathic effect | EC50 | KOS ACV-resistant | HEL | 10 µg/mL
COc1ccc2cc3[n+](cc2c1OC)CCc1cc2c(cc1-3)OCO2 | cytopathic effect | EC50 | KOS | HeLa | >200 µg/mL
Nc1nc(=O)n([C@@H]2O[C@H](CO)[C@@H](O)[C@@H]2F)cc1I | cytopathic effect | EC50 | KOS PMEA-resistant | HEL | 0.01 µg/mL
NC(=O)c1cn([C@@H]2O[C@H](CO)C[C@H]2O)c2ncnc(N)c12 | cytopathic effect | EC50 | KOS | PRK | ≥10 µg/mL

Repeating the first 2 entries:

| structure | method | endpoint | strain or isolate | cell line | result |
|---|---|---|---|---|---|
| Cc1c(N)nc([C@H](CC(N)=O)NC[C@H](N)C(N)=O)nc1C(=O)N[C@H](C(=O)N[C@H](C)[C@@H](O)[C@H](C)C(=O)N[C@H](C(=O)NCCc1nc(-c2nc(C(=O)NCCC[S+](C)C)cs2)cs1)[C@@H](C)O)C(O[C@@H]1O[C@@H](CO)[C@@H](O)[C@H](O)[C@@H]1O[C@H]1O[C@H](CO)[C@@H](O)[C@H](OC(N)=O)[C@@H]1O)c1cnc[nH]1 | cytopathic effect | EC50 | KOS | HeLa | >200 µg/mL |
| Nc1ncnc2c1ncn2C[C@@H](CO)OCP(=O)(O)O | cytopathic effect | EC50 | KOS HPMPA-resistant | HEL | 1.8 µg/mL |